Experimental findings from patent US20170059558A1 are described below.

The experiment deals with SNAP-25 (human) (UniProt P60880). The experiment is described as follows: cell-based or functional assay.

Botulinum neurotoxin type A: the EC50 with GT1b (30 µM), SNAP-25 cleavage in iCell neurons, Batch 02 worked out at 0.65 U/ml; the EC50 with GT1b (30 µM), SNAP-25 cleavage in iCell neurons, Batch 03 came to 0.89 U/ml; the EC50 with GT1b (30 µM), SNAP-25 cleavage in iCell neurons, Batch 04 came out at 0.77 U/ml; the EC50 with GT1b (30 µM), SNAP-25 cleavage in iCell neurons, Batch 05 was determined as 0.68 U/ml. Also, the EC50 with GT1b (30 µM), SNAP-25 cleavage in iCell neurons, Mean of 4 batches was 0.75 U/ml; the EC50 without GT1b, SNAP-25 cleavage in iCell neurons, Batch 02 was 2.84 U/ml; the EC50 without GT1b, SNAP-25 cleavage in iCell neurons, Batch 03 amounted to 5.37 U/ml; the EC50 without GT1b, SNAP-25 cleavage in iCell neurons, Batch 04 stood at 6.4 U/ml. The EC50 without GT1b, SNAP-25 cleavage in iCell neurons, Batch 05 amounted to 5.47 U/ml and the EC50 without GT1b, SNAP-25 cleavage in iCell neurons, Mean of 4 batches came out at 5.02 U/ml.
